Measured values from several laboratories, pooled; numbers as filed in NIAID ChemDB.

Common to all: tests in culture; species: Rhinovirus; endpoint: inhibition

Two numbers with a dash give a range or band. Inhibition is in % at the dose shown (toxicity tests: loss of growth or viability). Neighbouring rows are from separate reports. An empty or dashed field is not shown.

SMILES | strain or isolate | cell line | read by | tested at | result
COc1ccc(Cn2cnc3c(N(C)C)nc(C(F)(F)F)nc32)cc1C | Serotype 13 | M-HELA | plaque count | 8 µM | 12%
Nc1ccc2cc([N+](=O)[O-])cc(S(=O)(=O)[O-])c2c1 |  | Human amnion AV3 cells | cytopathic effect | 10 µg/mL | 5%
CCOC(=O)c1csc(N2CCN(Cc3cc(C)ccc3C)CC2)n1 | 17 serotypes |  |  | 0.125 µg/mL | 18%
N#Cc1cc([N+](=O)[O-])ccc1Oc1ccc(Cl)c(Cl)c1 | TYPE 1A | VERO |  | 12.5 µg/mL | 87%
O=C(O)Cc1csc(/N=C2\SC[C@@H]3Cc4ccccc4CN23)n1 | Serotype 15 | MRC-5 | cytopathic effect | 20 µg/mL | 80–100%
FC(F)(F)c1cccc(C2CCN(c3ccc(Cl)nn3)C2)c1 | 17 serotypes |  |  | 17 µg/mL | 71%
O=S(=O)([O-])c1cccc(O)c1 |  | Human embryonic lung cells | cytopathic effect | 50 µg/mL | 0%
CN(C)c1nc(C(F)(F)F)nc2c1ncn2Cc1ccc(Cl)c(Cl)c1 | Serotype 13 | M-HELA | plaque count | 8 µM | 23%
Cc1cccc(C2=CCN(c3ccc(Cl)nn3)CC2)c1 | 100 serotypes |  |  | 0.016 µg/mL | 18%
CN(C)c1nc(C(F)(F)F)nc2c1ncn2Cc1ccccc1Cl | Serotype 31 | M-HELA | plaque count | 8 µM | 38%
Cc1cccc(C2=CCN(c3ccc(Br)nn3)CC2)c1 | 100 serotypes |  |  | 0.013 µg/mL | 18%
O=S(=O)(O)c1cc(O)c2c(O)c(N=Nc3ccccc3)c(S(=O)(=O)O)cc2c1 |  | Human embryonic lung cells | cytopathic effect | 50 µg/mL | 90%
CN(C)c1nc(C(F)(F)F)nc2c1ncn2Cc1ccccc1 | Serotype 5 | M-HELA | plaque count | 8 µM | 33%
O=C(Nc1c(S(=O)(=O)[O-])cc2cc(S(=O)(=O)[O-])cc(O)c2c1O)c1ccccc1 |  | Human amnion AV3 cells | cytopathic effect | 10 µg/mL | 18%
CN(C)c1nc(C(F)(F)F)nc2c1ncn2Cc1cccc(F)c1 | Serotype 8 | M-HELA | plaque count | 8 µM | 45%

Again, the opening 2 rows:

| SMILES | strain or isolate | cell line | read by | tested at | result |
|---|---|---|---|---|---|
| COc1ccc(Cn2cnc3c(N(C)C)nc(C(F)(F)F)nc32)cc1C | Serotype 13 | M-HELA | plaque count | 8 µM | 12% |
| Nc1ccc2cc([N+](=O)[O-])cc(S(=O)(=O)[O-])c2c1 |  | Human amnion AV3 cells | cytopathic effect | 10 µg/mL | 5% |